Percent effect of library compounds

Measurements from “University of Dundee, Small-Polar-MMV Screening Library” (2021), ChEMBL document CHEMBL3988442.

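Whole-cell growth test on Mycobacterium tuberculosis, read after 3 days in glucose-containing 7H9 medium; the read-out is not stated. Concentration: 500 µM. Direction is inferred from retests: higher values go with more growth inhibition. About 18,000 compounds were tested under these conditions; 7.9% (about 1,400) showed 50% or more at least once.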

Each number is a percent effect as filed.
The record does not define 0% and 100%; most values in the screen are far below 50% and negative numbers occur (in some assays of this library far below -100).
The entries come from a sample that favours strong results.

compound,Percent Effect
CC1CN(CCC(=O)NC(N)=O)CCO1 (stereo not drawn),97.81
CCN(CC(=O)NC)S(=O)(=O)c1ccc(C(N)=O)cc1,1.046
Cc1ccncc1NC(=O)CCCc1ccccn1,-8.035
COCc1nc(CNc2nc(N)ncc2C)no1,3.715
C=C(Br)CN1CCN(CCNC(=O)C2CCC2)CC1,53.08
CC(C)CC(C)(CN)NS(C)(=O)=O (stereo not drawn),-1.049
CCC[C@H]1CN(C(=O)c2ccnc(NC)c2)C[C@@H]1N,13.09
CCOCc1nnc(NCc2cccc(OC)n2)o1,28.72
CNCC(=O)Nc1ccc(F)cc1,13.22
c1ccc(N2CCN3CCCCC3C2)nc1 (stereo not drawn),26.4
CC(CO)NC(=O)CN(c1cccc(F)c1)S(C)(=O)=O (stereo not drawn),0.6861
CNC(=O)c1cc(OC2CCCNC2)ccn1 (stereo not drawn),2.831
Cc1ccc(CN(C)CC(=O)N2CCNC2=O)c(C)c1,-14.74
Cc1n[nH]c(SCC(=O)NCCc2ccccc2)n1,24.46
Cc1cncc(-c2cc(NCCO)nc(N)n2)c1,-2.967
CN(Cc1nccs1)C(=O)C1COc2ccccc2C1 (stereo not drawn),63.35
COc1c(C)cnc(CSCCN2CCOCC2)c1C,21.66
CN(CC(=O)N1CCOCC1)Cc1ccc(Br)o1,9.45
N#Cc1cccc(C(=O)NCCCN2CCCC2)c1,15.63
O=C(Nc1ncccc1O)c1sccc1OC(F)F,-1.475
CC(NC(=O)c1ccc(=O)n(C)n1)C1CC1 (stereo not drawn),25.9
COC(=O)c1snc(-c2ccccc2)c1N,30.26
Cc1cc(F)cc(S(=O)(=O)NCCN)c1,22.94
CC(C)c1[nH][nH]c(=O)c1CCN,31.67
CCN1CCCC1CNC(=O)c1cccc(C)n1 (stereo not drawn),56.08
CNC(=O)c1cccc(CN)n1,7.094
CN(C)S(=O)(=O)c1ccc(N)nc1,1.241
CC(C)OC1CCCNC1 (stereo not drawn),-5.241
CN(C)c1cccc(NC(=O)c2cc(Cl)ccn2)n1,-7.074
O=C(Nc1ccccc1I)C1COCCO1 (stereo not drawn),20.35
Cc1ccc2c(c1)OC(C)C(=O)N2 (stereo not drawn),19.24
CN(C)S(=O)(=O)NC1(C)CCc2ccccc2C1 (stereo not drawn),-2.419
O=S(=O)(c1ccco1)N1CCOCc2ccccc21,62.91
O=C1NCCCC12CCN(C/C=C/c1ccccc1)C2 (stereo not drawn),41.02
C=C(C)CSc1nnnn1Cc1ccco1,70.81
O=C(NCc1ccnc(N2CCCC2)c1)c1ccsc1,95.73
CO[C@H]1[C@@H]2CC[C@H]1CN(C(=O)c1nc(C)c[nH]1)C2,18.93
CC(C)Cc1cc(C(=O)NCC2(O)CCOCC2)[nH]n1,15.44
CCNS(=O)(=O)CCNC(=O)c1cc(C)ccc1O,38.14
CCn1cc(NC(=O)NCCN2CCCC(C)C2)cn1 (stereo not drawn),-1.856
Nc1ncn(Cc2cccc(Cl)c2)n1,21.6
Cc1noc(NC(=O)c2ccc(C(F)(F)F)nc2C)n1,91.31
O=C(CSc1ccc(F)cc1)N1CCC1,58.22
CC(NC(=O)CSc1nc(=O)[nH]n1C)c1cccs1 (stereo not drawn),85.31
COc1ccc2nc(SCN3CCCCC3=O)[nH]c2c1,36.16
CN(CCn1cccn1)C(=O)C1CC12CCNCC2 (stereo not drawn),4.521
Cc1nnc(SCCCNC(=O)c2cc(Cl)c[nH]2)s1,59.73
OC[C@@H]1CNCC[C@@H]1c1ccccc1,-3.418
CNC(=O)Nc1ccc(N2CCOCC2)nc1,-293.5
NCC(CO)Cc1ccc(Cl)cc1 (stereo not drawn),48.45
Cc1cc(C)c2cc(C(=O)NCCO)[nH]c2c1,35.97
CC(NC(=O)Cc1cccnc1)c1cn2ncsc2n1 (stereo not drawn),14.52
COc1ccc2c(c1)CCN2C(=O)[C@@H](N)CC(C)C,6.383
Cc1noc(-c2ccc(=O)n(CC(C)C)n2)n1,-16.46
NC(=O)CCN1CCCC1,-10.05
CCCc1cc(=O)[nH]c(C(C)(N)CC)n1 (stereo not drawn),20.48
Cc1cccc(=O)n1CCC(=O)N1CCOCC(O)C1 (stereo not drawn),0.9616
CN(CCNc1ncccc1C#N)C(=O)OC(C)(C)C,43.26
Cc1ccnc(SCC(N)=O)c1C#N,-3.032
c1cc(N2CCCNCC2)ccn1,-6.828
CN(Cc1ccncc1)C(=O)CN,7.392
Cn1cc(Br)c(=O)c(NC(=O)c2cc(Cl)ccn2)c1,5.704
CC(C(=O)Nc1sccc1C(N)=O)N1CCCC1 (stereo not drawn),18.74
COCc1nc(CN)cs1,12.06
O=C(Cc1ccccc1F)Nc1nnc2n1CCCC2,5.812
COCCn1cc(C(C)N)cn1 (stereo not drawn),0.3466
CSCC[C@@H](CO)NC(=O)c1cc(C(C)C)nn1C,23.8
NC1CCN(C2CCOCC2)CC1,-9.134
CCN1CCCC(CNC(=O)Nc2cc(C)nn2C)C1 (stereo not drawn),9.065
Cn1cc(CC(=O)Nc2ccc(I)cn2)cn1,55.53
Cc1cc(C)c(CNc2ncnc3[nH]ncc23)c(=O)[nH]1,-2.183
COCCNC1(C(=O)NCC2CC2)CCCC1,5.742
COCCOc1cccc(F)c1C(C)O (stereo not drawn),4.39
O=C1CN(C(=O)Nc2cc(Cl)ccc2F)CCN1,35.75
CCCC(NC)c1ccccn1 (stereo not drawn),-3.697
CNCC1(CO)CCCC1,-11.64
COc1ccccc1OCC(C)CN (stereo not drawn),85.67
CN(C)S(=O)(=O)CCCN1CC(c2ccccn2)C1,8.602
COc1cccc(S(=O)(=O)CCN2CCN(C)CC2)c1,31.5
Cc1cc(NC(=O)CN2CCN(C)CC2)n(C)n1,7.798
CC(Sc1nc2ccccc2o1)C(=O)N1CCOCC1 (stereo not drawn),76.74
CS(=O)(=O)NCCCN1CCc2ccccc21,35.65
CC(C)NS(=O)(=O)c1csc(C(N)=O)c1,5.018
Nc1cc(-c2ccc(I)cc2)nn1CCO,52.24
COC(C)CCC(=O)NCc1cn2ccccc2n1 (stereo not drawn),16.67
Cc1cncc(C(=O)Nc2cc(O)cc(F)c2)c1,22.97
CC1CN(CCCOc2ccc(C#N)cc2)CCN1 (stereo not drawn),67.2
Cc1cccc(OC(C)CN)c1 (stereo not drawn),5.555
CN(C(=O)CSCC#N)C1CCCCC1,34.88
C[C@H](NC(=O)C1(C#N)CCCCC1)C(N)=O,12.03
O=C(c1ccc(CN2CCOCC2)cc1)N1CCCC1,16.05
Cn1c(CNC(=O)Nc2nccs2)nnc1C1CC1,-0.05156
CCCn1ncnc1-c1ccc(S(C)(=O)=O)cc1,-1.838

Repeated from the top, 9 entries:

| compound | Percent Effect |
|---|---|
| `CC1CN(CCC(=O)NC(N)=O)CCO1` (stereo not drawn) | 97.81 |
| `CCN(CC(=O)NC)S(=O)(=O)c1ccc(C(N)=O)cc1` | 1.046 |
| `Cc1ccncc1NC(=O)CCCc1ccccn1` | -8.035 |
| `COCc1nc(CNc2nc(N)ncc2C)no1` | 3.715 |
| `C=C(Br)CN1CCN(CCNC(=O)C2CCC2)CC1` | 53.08 |
| `CC(C)CC(C)(CN)NS(C)(=O)=O` (stereo not drawn) | -1.049 |
| `CCC[C@H]1CN(C(=O)c2ccnc(NC)c2)C[C@@H]1N` | 13.09 |
| `CCOCc1nnc(NCc2cccc(OC)n2)o1` | 28.72 |
| `CNCC(=O)Nc1ccc(F)cc1` | 13.22 |